Laboratory results: PubChem BioAssay AID624099 (ICCB-Longwood, 2012)

Aim: 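Human genes that papillomavirus E2 requires to repress the HPV18 LCR promoter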 (primary screen)
Cells: human C33A cervical carcinoma cells (HPV-negative) stably expressing BPV1 E2 and an HPV18 LCR luciferase reporter
Reagent: siRNA pool against human genes, 40 nM
Duration: 72 h
Read-out: 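Per-well luciferase luminescence, z-scored on each plate against the plate mean and SD with control wells left out, then averaged across three replicate plates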
Scale: mean z-score and z-score: higher = stronger reporter signal, weaker E2 silencing
Rule for the call: 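Mean z ≥ 2 together with z ≥ 2 in two or more of the three replicates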
Shown is one part, drawn at random, of about 21,000 deposited reagents. 497 of all reagents (2.4%) count as active. 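Higher z means weaker E2 silencing; only reporter increases were scored, and knock-downs that hurt cell survival may mask genuine repressor factors.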

Target gene	mean z-score	z-score, replicate A	z-score, replicate B	z-score, replicate C	Call
SCG2 (secretogranin II)	0.49	0.58	0.58	0.3	inactive
XKR4 (XK related 4)	0.02	0.14	-0.34	0.26	inactive
FCGBP (Fc gamma binding protein)	0.89	1.03	0.91	0.73	inactive
URB1-DT (URB1 divergent transcript)	0.42	0.73	0.2	0.33	inactive
PIPOX (pipecolic acid and sarcosine oxidase)	-0.98	-0.63	-1.19	-1.12	inactive
LRRN2 (leucine rich repeat neuronal 2)	-0.08	-0.21	-0.02	-0.02	inactive
RWDD3 (RWD domain containing 3)	0	0.21	-0.16	-0.06	inactive

Individual results from the entries so far.
For “Call”, SCG2 (secretogranin II) is entered as inactive
RWDD3 (RWD domain containing 3), z-score, replicate B: -0.16
FCGBP (Fc gamma binding protein), z-score, replicate C → 0.73

The results go on:
Target gene	mean z-score	z-score, replicate A	z-score, replicate B	z-score, replicate C	Call
LOC401584 (retired record)	-0.74	-0.69	-0.54	-0.98	inactive
ETV2 (ETS variant transcription factor 2)	-0.38	-0.26	-0.38	-0.5	inactive
TRMT11 (tRNA methyltransferase 11)	-0.22	-0.61	0.18	-0.22	inactive
LOC388798 (retired record)	-0.99	-0.89	-0.91	-1.18	inactive
CTDP1-DT (CTDP1 divergent transcript)	-1.7	-1.64	-1.66	-1.79	inactive
RAB11FIP4 (RAB11 family interacting protein 4)	2.38	2.82	2	2.32	active
LDC1P (leucine decarboxylase 1, pseudogene)	1.26	0.81	1.08	1.9	inactive
LINC00482 (long independently transcribed non-coding RNA 482)	-0.89	-0.94	-1.12	-0.62	inactive
SPATC1L (spermatogenesis and centriole associated 1 like)	0.85	0.2	1.4	0.96	inactive
SPSB1 (splA/ryanodine receptor domain and SOCS box containing 1)	0.68	1.08	0.45	0.51	inactive
FAM169BP (family with sequence similarity 169 member B, pseudogene)	-1.15	-0.86	-1.34	-1.24	inactive
OR14J1 (olfactory receptor family 14 subfamily J member 1)	0.2	0.5	-0.02	0.12	inactive
TGM7 (transglutaminase 7)	-0.97	-0.8	-1.16	-0.97	inactive
DCUN1D4 (defective in cullin neddylation 1 domain containing 4)	0.08	-0.05	0.14	0.13	inactive
RTCA (RNA 3'-terminal phosphate cyclase)	-1.02	-0.95	-0.98	-1.12	inactive
P3H3 (prolyl 3-hydroxylase 3)	1.24	1.53	1.11	1.08	inactive
